The values that follow come from patent US12018066, “Compositions for targeting SARS-CoV-2 spike protein receptor binding domain” (TRIAD NATIONAL SECURITY, dated 2024).

Some results are limits rather than exact numbers.

The target of test [1] is RBD2-sfGFP-6His (SARS-CoV-2, UniProt P0DTC2). The test can be described thus: FLISA, immobilized IgG, 100 nM sfGFP chimera, GFP fluorescence.
The target of test [2] is T1, SARS-CoV-2 spike subunit 1 (S1), avitagged and biotinylated (SARS-CoV-2, UniProt P0DTC2 16-685).
T1 construct: domain: S1
The test is described as follows: FLISA, immobilized IgG, 100 nM biotinylated antigen, streptavidin-Alexa 633.

The target in test [3] is SARS-CoV-2 spike protein variant D614G (SARS-CoV-2, UniProt P0DTC2 16-1213).
Test [4] addresses SARS-CoV spike protein receptor binding domain (RBD1) (SARS-CoV, UniProt P59594 306-527).

B1: R04 IgG1 (antibody, V domains shown)
VH: QVQLQQSGPGLVKSSQTLSLTCAISGDSVSSNGAAWHWIRQSPSRGLEWLGRTYYRSGWYNDYAVSVKSRITINQDTSKNQFSLQLNSVTPEDTAVYFCAREGGGGRMDVWSQGTTVTVSS
VL: EIVMTQSPSSLSASVGDRVTITCQASQDISNYLNWCQQKPGKAPKLLIYDASNLETGVPSRFSGSGSGTGFTFTISSLQPEDFATYYCQQSYSTPYTFGQGTKVEIK
For the molecule B1, the binding result in test [1] and in test [2] was “no binding (tested: 100 nM)” in each case.

B2: S01 IgG1 (antibody, V domains shown)
VH: QVQLVESGGGLVKPGGSLRLSCAASGFTVGSNYMSWVRQAPGKGLEWVSVIYSGGSTYYADSVKGRFTISRDNSKNTLYLQMNSLRAEDTAVYYCARGSSGAWYFDLWGRGTLVTVSS
VL: EIVMTQSPSSLSASVGDSVTITCQASQDISNYLNWYQQKPGKAPKLLIYDASNLETGVPSRFSGGGSGTDFTLTITSLQPEDIATYYCQQYDNFPPTFGPGTKVDIK
notes: also called 501
As for B2, in test [3], the “fold reduction of detection sensitivity, wild-type vs D614G spike” value was at least 31 fold. In test [4], the binding result was “no binding (tested: 100 nM)”.
